PubChem BioAssay AID504761, Drosophila RNAi Screening Center – 2011
In all, the deposit lists about 22,000 reagents; this is a random part of those that have a named target and a result. Over the whole deposit, 116 (0.52%) are marked active. 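Calls depend on retest data that are not deposited; infection was ranked per plate without normalising between plates; the unit of the infection score is not given.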 The raw values are shown without normalisation. Names joined by + are all predicted targets of the reagent. Not stated in the record: the amount of reagent, the time to read-out.

- Aim: 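Fly genes whose silencing reduces dengue virus type 2 infection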 (primary screen)
- Cells: D.Mel-2 cells from Drosophila
- Reagent: long dsRNA against Drosophila genes
- Conditions: infection with dengue virus type 2; dose and infection time not stated
- Measured: 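Cells stained for dengue envelope protein and imaged; percent of infected cells per well on duplicate plates, ranked by infection, with stained nuclei counted for cell number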
- Scale: infection score: higher = more virus-infected cells; cell count: higher = more cells in the well
- Rule for the call: 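Very low infection ranking in both replicate wells (chance probability at most 0.065), then a retest showing infection dropped 1.5-fold or more at p below 0.05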
- Meaning of the calls: active = confirmed: knock-down lowers infection; inactive = not picked or not confirmed

gene	dsRNA	infection score, replicate 1	infection score, replicate 2	cell count, replicate 1	cell count, replicate 2	Outcome
GstE8	DRSC06678	17	23.2	6385	5672	inactive
He + NimB5	DRSC22876	1.72	2.55	6160	6699	inactive
CG17050 (retired record)	DRSC06651	0.75	34.4	797	4741	inactive
CG32988	DRSC02692	4.41	2.71	6605	6741	inactive
Manf	DRSC14091	30.9	29	5424	6144	inactive
CG17261	DRSC00498	4.26	1.53	6451	5898	inactive
sob	DRSC00838	2.62	2.31	5995	6068	inactive
sob	DRSC25075	2.41	0.7	6359	6563	inactive
HUWE1	DRSC20089	19.5	7.48	3228	1831	inactive
Tcs5	DRSC09774	3.06	2.64	6565	6017	inactive
Mcm2	DRSC16734	4.78	9.05	5957	6131	inactive
Mcm2	DRSC26612	2.17	4.69	5934	5504	inactive
CG15422	DRSC00436	6.75	5.89	6608	6855	inactive
CG15422	DRSC25238	3.29	2.68	5530	6238	inactive
CG2962	DRSC18247	23.9	6.5	3105	6783	inactive
CG2962	DRSC27023	2.23	6.75	6310	6252	inactive
CG6675	DRSC03735	10.1	16	6422	6531	inactive
CG33107	DRSC21898	1.29	9.46	697	5721	inactive
CG6073	DRSC15962	4.64	1.42	1573	5968	inactive
CG6073	DRSC22742	10.8	13.2	4897	6588	inactive
CG6073	DRSC29018	16.1	13.5	4784	5929	inactive
frm	DRSC09753	2.89	3.22	6722	7261	inactive
frm	DRSC25370	8.42	10.1	6118	6200	inactive
